From paper PMC4831847

Tested on: hPBV RdRP ΔLOOP (human picobirnavirus strain Hy005102)
Assay: EMSA
Settings: 50 mM Tris-HCl pH 7.5, 50 mM KCl, 1 mM NaN3, 5 mM beta-mercaptoethanol, 10% glycerol; 1 nM 32P-RNA, 30 min at room temperature; 15% native PAGE in ice bath; recombinant protein; label: 32P (5' end, T4 PNK)

GUAAAAUUUUCGAAUUUUAU [PBV 5'-(+)UTR]
binding result: binds

For at least one entry, the source does not settle the construct or the ends of the probe. At least one verdict was read from the data and is not stated in words by the source.
